Molecular target: hepatitis C virus RNA dependent polymerase (NS5B) (Hepatitis C virus genotype 1b, UniProt P26663)
Settings: Table 1; HCV NS5B polymerase

Chains of the proteins cited; added tags and fusions are not shown. Residues count along the entry.
UniProt P26663, 2420-3010 limits assumed: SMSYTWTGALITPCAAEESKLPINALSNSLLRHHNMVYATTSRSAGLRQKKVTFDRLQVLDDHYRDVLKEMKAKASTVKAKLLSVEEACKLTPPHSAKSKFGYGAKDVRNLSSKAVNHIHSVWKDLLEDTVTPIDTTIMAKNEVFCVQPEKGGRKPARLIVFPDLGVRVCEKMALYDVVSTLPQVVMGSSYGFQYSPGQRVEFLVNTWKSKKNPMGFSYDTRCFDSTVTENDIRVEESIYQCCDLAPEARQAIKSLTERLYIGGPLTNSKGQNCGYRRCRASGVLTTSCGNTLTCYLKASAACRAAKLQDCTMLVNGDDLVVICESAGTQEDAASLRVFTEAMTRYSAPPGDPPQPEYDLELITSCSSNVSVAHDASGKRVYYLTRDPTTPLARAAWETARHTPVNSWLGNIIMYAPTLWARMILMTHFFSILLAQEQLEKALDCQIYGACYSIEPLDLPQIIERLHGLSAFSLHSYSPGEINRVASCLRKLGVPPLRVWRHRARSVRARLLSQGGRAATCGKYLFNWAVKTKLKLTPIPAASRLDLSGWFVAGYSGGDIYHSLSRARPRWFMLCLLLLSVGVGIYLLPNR

Question: For `CS(=O)(=O)NC(=O)c1ccc2c(C3CCCC3)c(-c3ccoc3)sc2c1`, which IC50 is on record?
Answer: Its IC50 is less than 1000 nM.

Question: With `O=C(NS(=O)(=O)c1ccccc1)c1ccc2c(c1)nc(-c1ccccn1)n2C1CCCC1` as the compound, how does the IC50 read?
Answer: The IC50 was 1000 to 20000 nM.

Question: `Cn1c(-c2ccoc2)c(C2CCCC2)c2ccc(C(=O)NS(=O)(=O)C3CC3)cc21` was tested. Which IC50 did it give?
Answer: Its IC50 is less than 1000 nM.

Question: For `COc1ccc(OC)c(S(=O)(=O)NC(=O)c2ccc3c(c2)nc(-c2ccoc2)n3C2CCCC2)c1`, which IC50 is on record?
Answer: Its IC50 is less than 1000 nM.

Question: Which IC50 does the source give for `Cn1c(-c2ccoc2)c(C2CCCCC2)c2ccc(C(=O)NS(=O)(=O)c3ccccc3)cc21` here?
Answer: Its IC50 is less than 1000 nM.

Question: With `CC(C)S(=O)(=O)NC(=O)c1ccc2c(C3CCCCC3)c(-c3cnccn3)n(C)c2c1` as the compound, how does the IC50 read?
Answer: The IC50 was less than 1000 nM.

Question: For `CS(=O)(=O)NC(=O)c1ccc2c(c1)nc(-c1ccoc1)n2C1CCCCC1`, which IC50 is on record?
Answer: The IC50 was less than 1000 nM.

Question: With `O=C(NS(=O)(=O)C1CC1)c1ccc2c(C3CCCC3)c(-c3ccccn3)sc2c1` as the compound, how does the IC50 read?
Answer: The IC50 was 1000 to 20000 nM.

Question: How did the IC50 turn out when `COc1ccc(OC)c(S(=O)(=O)NC(=O)c2ccc3c(c2)nc(-c2ccoc2)n3C2CCCCC2)c1` was run?
Answer: Its IC50 is less than 1000 nM.

Question: Which IC50 does the source give for `Cc1c(-c2ccoc2)n(C2CCCC2)c2ccc(C(=O)NS(=O)(=O)c3ccccc3)cc12` here?
Answer: The IC50 was less than 1000 nM.

Question: With `CCCS(=O)(=O)NC(=O)c1ccc2c(C3CCCC3)c(-c3cnccn3)oc2c1` as the compound, how does the IC50 read?
Answer: Its IC50 is 1000 to 20000 nM.

Question: With `O=C(NS(=O)(=O)c1ccccc1)c1ccc2c(c1)nc(-c1ccoc1)n2C1CCCCC1` as the compound, how does the IC50 read?
Answer: The IC50 was less than 1000 nM.

Question: `Cn1c(-c2ccccn2)c(C2CCCC2)c2ccc(C(=O)NS(C)(=O)=O)cc21` was tested. Which IC50 did it give?
Answer: Its IC50 is less than 1000 nM.

Question: Which IC50 does the source give for `COc1ccc(OC)c(S(=O)(=O)NC(=O)c2ccc3c(c2)nc(-c2ccccn2)n3C2CCCC2)c1` here?
Answer: Its IC50 is less than 1000 nM.

Question: Which IC50 does the source give for `COc1ccc(OC)c(S(=O)(=O)NC(=O)c2ccc3c(c2)nc(-c2ccccn2)n3C2CCCCC2)c1` here?
Answer: Its IC50 is 1000 to 20000 nM.

Question: With `CS(=O)(=O)NC(=O)c1ccc2c(C3CCCC3)c(-c3ccoc3)[nH]c2c1` as the compound, how does the IC50 read?
Answer: The IC50 was less than 1000 nM.

Question: `CS(=O)(=O)NC(=O)c1ccc2c(c1)nc(-c1ccccn1)n2C1CCCC1` was tested. Which IC50 did it give?
Answer: The IC50 was 1000 to 20000 nM.

Question: `O=C(NS(=O)(=O)c1ccccc1)c1ccc2c(C3CCCCC3)c(-c3ccoc3)[nH]c2c1` was tested. Which IC50 did it give?
Answer: The IC50 was less than 1000 nM.

Question: `CS(=O)(=O)NC(=O)c1ccc2c(c1)nc(-c1ccoc1)n2C1CCCC1` was tested. Which IC50 did it give?
Answer: Its IC50 is 1000 to 20000 nM.

Question: Which IC50 does the source give for `Cc1c(-c2ccccn2)n(C2CCCC2)c2ccc(C(=O)NS(C)(=O)=O)cc12` here?
Answer: Its IC50 is 1000 to 20000 nM.

Question: `CS(=O)(=O)NC(=O)c1ccc2c(c1)nc(-c1ccccn1)n2C1CCCCC1` was tested. Which IC50 did it give?
Answer: The IC50 was 1000 to 20000 nM.

Question: With `Cn1c(-c2ccccn2)c(C2CCCC2)c2ccc(C(=O)NS(=O)(=O)N3CCN(Cc4ccccc4)CC3)cc21` as the compound, how does the IC50 read?
Answer: The IC50 was 1000 to 20000 nM.

Question: With `Cn1c(-c2cccc(N)n2)c(C2CCCC2)c2ccc(C(=O)NS(=O)(=O)c3ccccc3)cc21` as the compound, how does the IC50 read?
Answer: Its IC50 is less than 1000 nM.

Question: For `O=C(NS(=O)(=O)c1ccccc1)c1ccc2c(c1)nc(-c1ccccn1)n2C1CCCCC1`, which IC50 is on record?
Answer: The IC50 was 1000 to 20000 nM.

Question: For `Cn1c(-c2cnccn2)c(C2CCCC2)c2ccc(C(=O)NS(=O)(=O)c3ccccc3)cc21`, which IC50 is on record?
Answer: The IC50 was less than 1000 nM.

— patent publication US7098231B2, “Viral polymerase inhibitors” (Boehringer Ingelheim International GmbH, priority 2003, dated 2006)
